Data as given in PubChem BioAssay AID1259414 (Drosophila RNAi Screening Center, 2018)

- Purpose: 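Host factors increasing or decreasing Wolbachia levels in cultured fly cells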 (primary screen)
- System: Drosophila JW18 cells infected with Wolbachia
- Reagent: long dsRNA against Drosophila genes, 0.25 µg dsRNA per well of a 384-well plate
- Time to read-out: 5 days
- Challenge: cells persistently infected with Wolbachia before knock-down; no added drug
- Read-out: 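Imaged fluorescence in situ signal for Wolbachia 23S rRNA per DAPI-counted host cell, given as a robust z-score within each plate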
- Scale: Wolbachia per cell robust z: higher = more Wolbachia per host cell than the plate typical
- Active means: 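Active if absolute robust z reaches 1.5 in two or more of three replicates, leaving out multi- or no-target dsRNAs, genes unexpressed in JW18 and A1 wells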
The screen tested about 24,000 reagents; shown is an unselected part of those that have a named target and a result. Over the whole deposit, about 1,210 (5%) got an active call. 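Inactive calls also include excluded dsRNAs with several or no targets, genes unexpressed in JW18, and well A1, regardless of score.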 Reagents against one gene are numbered here. Names joined by + are all predicted targets of the reagent.

Silencing of Cyp4e3 (Cytochrome P450 4e3) #1 resulted in: Wolbachia per cell robust z, rep 1 = -0.172; Wolbachia per cell robust z, rep 2 = 1.16; Wolbachia per cell robust z, rep 3 = -0.0429; inactive. Cyp4e3 (Cytochrome P450 4e3) #2 gave Wolbachia per cell robust z, rep 1 = 1.12; Wolbachia per cell robust z, rep 2 = 0.618; Wolbachia per cell robust z, rep 3 = 1.97; inactive. CG30395 scored Wolbachia per cell robust z, rep 1 = -4.8; Wolbachia per cell robust z, rep 2 = -0.301; Wolbachia per cell robust z, rep 3 = -0.0786; inactive. Against CG15390 the deposit lists Wolbachia per cell robust z, rep 1 = 0.295; Wolbachia per cell robust z, rep 2 = -4.6; Wolbachia per cell robust z, rep 3 = -1.19; inactive. Cyp311a1 (Cytochrome P450 311a1) #1 gave Wolbachia per cell robust z, rep 1 = 0.336; Wolbachia per cell robust z, rep 2 = 0.764; Wolbachia per cell robust z, rep 3 = 0.706; inactive. Cyp311a1 (Cytochrome P450 311a1) #2 gave Wolbachia per cell robust z, rep 1 = -2.3; Wolbachia per cell robust z, rep 2 = -2.52; Wolbachia per cell robust z, rep 3 = 0.337; inactive.

After knock-down of CG15262, the screen gave Wolbachia per cell robust z, rep 1 = 1.01; Wolbachia per cell robust z, rep 2 = 0.873; Wolbachia per cell robust z, rep 3 = 0.252; inactive. Against Lon (Lon protease) #1 the deposit lists Wolbachia per cell robust z, rep 1 = -0.523; Wolbachia per cell robust z, rep 2 = -1.24; Wolbachia per cell robust z, rep 3 = 0.702; inactive. Silencing of Lon (Lon protease) #2 came out at: Wolbachia per cell robust z, rep 1 = -0.559; Wolbachia per cell robust z, rep 2 = 0.757; Wolbachia per cell robust z, rep 3 = 0.00189; inactive. Knock-down of Tom20 (Translocase of outer membrane 20) gave: Wolbachia per cell robust z, rep 1 = -1.76; Wolbachia per cell robust z, rep 2 = 0.562; Wolbachia per cell robust z, rep 3 = 1.07; inactive.

Single entries from the entries so far:
CG30395, Wolbachia per cell robust z, rep 1: -4.8
Lon (Lon protease) #1, Wolbachia per cell robust z, rep 1 → -0.523
For “call”, CG15390 shows inactive
Result for Cyp4e3 (Cytochrome P450 4e3) #1 under “Wolbachia per cell robust z, rep 1”: -0.172

The results go on:
For CG7675 #1, the values are Wolbachia per cell robust z, rep 1 = -0.485; Wolbachia per cell robust z, rep 2 = -1.12; Wolbachia per cell robust z, rep 3 = -0.709; inactive. For CG7675 #2 the deposit lists Wolbachia per cell robust z, rep 1 = -1.27; Wolbachia per cell robust z, rep 2 = -1.25; Wolbachia per cell robust z, rep 3 = -1.47; inactive. After knock-down of stc (shuttle craft) #1 the results were Wolbachia per cell robust z, rep 1 = -0.397; Wolbachia per cell robust z, rep 2 = 0.087; Wolbachia per cell robust z, rep 3 = -0.778; inactive. After knock-down of stc (shuttle craft) #2 the results were Wolbachia per cell robust z, rep 1 = -1.58; Wolbachia per cell robust z, rep 2 = -1.72; Wolbachia per cell robust z, rep 3 = -0.647; active. kl-2 (male fertility factor kl2) #1 showed Wolbachia per cell robust z, rep 1 = -1.04; Wolbachia per cell robust z, rep 2 = -1.11; Wolbachia per cell robust z, rep 3 = -0.634; inactive. Silencing of kl-2 (male fertility factor kl2) #2 resulted in: Wolbachia per cell robust z, rep 1 = 0.424; Wolbachia per cell robust z, rep 2 = -1.67; Wolbachia per cell robust z, rep 3 = 0.282; inactive.

For CG10650 the deposit lists Wolbachia per cell robust z, rep 1 = -0.564; Wolbachia per cell robust z, rep 2 = 0.0157; Wolbachia per cell robust z, rep 3 = -7.88; inactive. Against CG31775 + CG42586 #1, the values are Wolbachia per cell robust z, rep 1 = -1.21; Wolbachia per cell robust z, rep 2 = -0.888; Wolbachia per cell robust z, rep 3 = -0.423; inactive. For CG31775 + CG42586 #2, the entry reads Wolbachia per cell robust z, rep 1 = -0.142; Wolbachia per cell robust z, rep 2 = -3.53; Wolbachia per cell robust z, rep 3 = -6.07; inactive. For side-V (sidestep V) the deposit lists Wolbachia per cell robust z, rep 1 = -0.768; Wolbachia per cell robust z, rep 2 = 0.451; Wolbachia per cell robust z, rep 3 = -1.55; inactive. For CG11663 the deposit lists Wolbachia per cell robust z, rep 1 = 0.788; Wolbachia per cell robust z, rep 2 = 0; Wolbachia per cell robust z, rep 3 = 1.02; inactive. Knock-down of CG10013 gave: Wolbachia per cell robust z, rep 1 = 0.132; Wolbachia per cell robust z, rep 2 = -6.78; Wolbachia per cell robust z, rep 3 = -5.96; inactive.

PGAP2 (Post-GPI attachment to proteins 2) #1 gave Wolbachia per cell robust z, rep 1 = 0.0325; Wolbachia per cell robust z, rep 2 = 1.08; Wolbachia per cell robust z, rep 3 = 0.404; inactive. With knock-down of PGAP2 (Post-GPI attachment to proteins 2) #2, the record shows Wolbachia per cell robust z, rep 1 = 1.1; Wolbachia per cell robust z, rep 2 = -0.335; Wolbachia per cell robust z, rep 3 = 0.694; inactive. Tis11 (Tis11 zinc finger protein) gave Wolbachia per cell robust z, rep 1 = 1.03; Wolbachia per cell robust z, rep 2 = -0.927; Wolbachia per cell robust z, rep 3 = 0.605; inactive. CG15710 scored Wolbachia per cell robust z, rep 1 = -3.88; Wolbachia per cell robust z, rep 2 = 0.496; Wolbachia per cell robust z, rep 3 = 0.0606; inactive. Cisd2 (CDGSH iron sulfur domain 2) scored Wolbachia per cell robust z, rep 1 = -4.36; Wolbachia per cell robust z, rep 2 = 1.02; Wolbachia per cell robust z, rep 3 = 0.958; inactive. CG34021 scored Wolbachia per cell robust z, rep 1 = -0.323; Wolbachia per cell robust z, rep 2 = 0.852; Wolbachia per cell robust z, rep 3 = -1.08; inactive.

Against AspRS-m (Aspartyl-tRNA synthetase, mitochondrial), the values are Wolbachia per cell robust z, rep 1 = 0.945; Wolbachia per cell robust z, rep 2 = -4.93; Wolbachia per cell robust z, rep 3 = 0.934; inactive. Knock-down of CG2964 came out at: Wolbachia per cell robust z, rep 1 = -1.19; Wolbachia per cell robust z, rep 2 = 0.442; Wolbachia per cell robust z, rep 3 = 0.323; inactive.
